{"source": "paper PMC4072758", "about": "“Vimentin Mediates Uptake of C3 Exoenzyme” (PLoS ONE, 2014)", "key": {"[1]": {"target": "T1, recombinant His-tagged mouse vimentin (full length) (mouse, UniProt P20152 1-466)", "T1 construct": "also called full length vimentin; vimentin (whole protein)", "experiment": "co-IP"}, "[2]": {"target": "vimentin rod domain (amino acids 102 to 410), His-tagged (mouse, UniProt P20152 102-410)", "experiment": "far-Western, overlay or dot blot"}}}
{"binder": "Clostridium botulinum C3 exoenzyme (enzyme) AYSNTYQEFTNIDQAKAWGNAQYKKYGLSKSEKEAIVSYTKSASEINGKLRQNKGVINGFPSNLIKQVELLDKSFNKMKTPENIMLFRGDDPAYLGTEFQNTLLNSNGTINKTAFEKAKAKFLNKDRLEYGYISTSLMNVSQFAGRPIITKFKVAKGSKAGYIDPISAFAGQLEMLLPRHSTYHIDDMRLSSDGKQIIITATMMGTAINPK", "values": [{"measurement": "binding result", "setting": "[1]", "result": "binds"}, {"measurement": "binding result", "setting": "[2]", "result": "binds"}]}
